Results published in publication PMC6628624 (Toxins, 2019).

Tested on: Caco-2 cells
Experiment: Permeability study using Caco-2 cells
Conditions: Caco-2, 1 and 2 h after exposure to 3 and 10 µmol/L CTVD; data not shown

COc1cc(=O)oc(/C=C/C=C/C=C/C(C)=C/[C@]2(C)O[C@H](C)[C@](C)(O)[C@H]2O)c1C [CTVD, Citreoviridin]
change in TEER (transepithelial electrical resistance) over time: no marked change
